Results deposited as PubChem BioAssay AID624099 (ICCB-Longwood, 2012)

Purpose: 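Host factors E2 relies on to silence an HPV18 LCR reporter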 (primary screen)
Cell system: human C33A cervical carcinoma cells (HPV-negative) stably expressing BPV1 E2 and an HPV18 LCR luciferase reporter
Reagents: siRNA pool against human genes, 40 nM
Duration: 72 h
Detection: 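Per-well luciferase luminescence, z-scored on each plate against the plate mean and SD with control wells left out, then averaged across three replicate plates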
Reading the numbers: mean z-score and z-score: higher = stronger reporter signal, weaker E2 silencing
Rule for the call: 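Hit if mean z-score reaches 2 and two or more of three replicate z-scores also reach 2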
This is an unselected part of about 21,000 reagents. 497 of them (2.4%) were called active. 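Higher z means weaker E2 silencing; only reporter increases were scored, and knock-downs that hurt cell survival may mask genuine repressor factors.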 Unmarked entries are inactive. Reagent sequences are not shown.

| target gene | mean z-score | z-score, replicate A | z-score, replicate B | z-score, replicate C |
| --- | --- | --- | --- | --- |
| PSMB9 (proteasome 20S subunit beta 9) | 2.84 (active) | 3.04 | 2.71 | 2.76 |
| LOC391770 (retired record) | 0.44 | 0.1 | 0.32 | 0.9 |
| SLC26A4 | -0.45 | -0.6 | -0.56 | -0.2 |
| INSC (INSC spindle orientation adaptor protein) | -0.29 | -0.19 | -0.47 | -0.2 |
| IQGAP2 (IQ motif containing GTPase activating protein 2) | 0.35 | 0.35 | -0.02 | 0.73 |
| PKD2 (polycystin 2, transient receptor potential cation channel) | -0.03 | -0.07 | 0.08 | -0.11 |
| FKBP7 (FKBP prolyl isomerase 7) | -0.26 | -0.37 | -0.28 | -0.14 |
| PLEKHH3 (pleckstrin homology, MyTH4 and FERM domain containing H3) | -1 | -0.61 | -1.04 | -1.34 |
| BARX2 (BARX homeobox 2) | 0.87 | 0.71 | 0.87 | 1.02 |
| TECTB (tectorin beta) | 0.13 | 0.22 | -0.03 | 0.21 |
| DLG3 (discs large MAGUK scaffold protein 3) | 0.22 | 0.38 | 0.27 | 0.02 |
| ANGEL1 (angel homolog 1) | -0.86 | -1.07 | -0.54 | -0.96 |
| NMU (neuromedin U) | 0.31 | 0.18 | 0.46 | 0.29 |

Next part; the last 3 above are carried over.
| target gene | mean z-score | z-score, replicate A | z-score, replicate B | z-score, replicate C |
| --- | --- | --- | --- | --- |
| DLG3 (discs large MAGUK scaffold protein 3) | 0.22 | 0.38 | 0.27 | 0.02 |
| ANGEL1 (angel homolog 1) | -0.86 | -1.07 | -0.54 | -0.96 |
| NMU (neuromedin U) | 0.31 | 0.18 | 0.46 | 0.29 |
| NMT2 (N-myristoyltransferase 2) | -0.24 | -0.29 | -0.21 | -0.23 |
| CIMIP2A (ciliary microtubule inner protein 2A) | -0.99 | -1.15 | -0.92 | -0.91 |
| AAMP (angio associated migratory cell protein) | 1.71 | 1.43 | 1.71 | 1.99 |
| LIMS2 (LIM zinc finger domain containing 2) | 0 | -0.22 | -0.08 | 0.3 |
| RCSD1 (RCSD domain containing 1) | -0.08 | 0.19 | -0.39 | -0.04 |
| GINS4 (GINS complex subunit 4) | 1.49 | 1.42 | 1.76 | 1.29 |
| CHST3 (carbohydrate sulfotransferase 3) | 0.3 | 0.19 | 0.59 | 0.12 |
| UGT2B28 (UDP glucuronosyltransferase family 2 member B28) | 0.17 | -0.29 | 0.22 | 0.59 |
| ZNF554 (zinc finger protein 554) | -0.27 | -0.09 | -0.21 | -0.51 |
| BEND2 (BEN domain containing 2) | -1.32 | -1.24 | -1.57 | -1.16 |
